How the values were obtained:
Experiment in all cases: cell-based or functional assay
[1] = biological target: HIV-2 ST envelope glycoprotein (HIV-2 ST) (UniProt P20872)
[2] = biological target: HIV-2 7312A/V434M envelope glycoprotein (HIV-2 isolate 7312A)
[3] = biological target: HIV-2 7312A/H419R envelope glycoprotein (HIV-2 isolate 7312A)
[4] = biological target: HIV-2 7312A envelope glycoprotein (HIV-2 isolate 7312A)
[5] = biological target: HIV-2 7312A/Q422L envelope glycoprotein (HIV-2 isolate 7312A)
[6] = biological target: HIV-2 UC-1 envelope glycoprotein (HIV-2 UC1) (UniProt Q76638)

soluble CD4 (from UniProt P01730 26-390) (receptor)
IC50 of sCD4 specific for the virus (neutralization) [1]: 25 nM | IC50 of sCD4 specific for the virus (neutralization) [2]: 15 nM | IC50 of sCD4 specific for the virus (neutralization) [3]: 28 nM | IC50 of sCD4 specific for the virus (neutralization) [4]: 9 nM | IC50 of sCD4 specific for the virus (neutralization) [5]: 6 nM | IC50 of sCD4 specific for the virus (neutralization) [6]: 3 nM

From patent publication US20080096187A1
